How the values were obtained:
[1] = target: SFTSV Gn glycoprotein ectodomain, strain HB29, Fc fusion (Gn-Fc) (SFTSV (Dabie bandavirus) strain HB29, UniProt A0A0B5A886, strain); assay: ELISA; conditions: both partners purified
[2] = target: SFTSV Gn glycoprotein ectodomain, strain SD4, Fc fusion (Gn-Fc) (SFTSV (Dabie bandavirus) strain SD4, UniProt F1BDJ0, strain); assay: ELISA; conditions: both partners purified

B1: Ab10 IgG1 antibody (antibody, V domains shown)
VH: EVQLVESGGGVVQPGRSLRLSCAASGFTFSGYGIHWVRQAPGKGLEWVALISYDGSNKYYADSVKGRFTISRDNSKNTLYLQMNSLRAEDTAVYYCAKDRDYFGSGFFDYWGQGTLVTVSS
VL: ELVMTQSPSSLSASVGDTVTITCRASQSIYTYLNWYHQTPGKAPKLLISAASSLQSGVPSRFSGSGSGTDFTLTISSLQPEDFATYYCQQYADVPVTFGGGTKLEIK
notes: also called Ab10 mAb; human IgG1 monoclonal antibody Ab10; source: HEK 293F, transfected, purified from culture supernatant (MabSelect)
[1]
  binding result: binds
[2]
  binding result: binds

Source: PMC6380599 (PLoS Pathogens, 2019)
